Experimental data published in US20100221709A1, “METHODS FOR IDENTIFYING AGENTS THAT MODULATE APOPTOSIS IN CELLS THAT OVER-EXPRESS A BCL-2 FAMILY MEMBER PROTEIN” (priority 2005, published 2010).

System: TABX2S cells (over-expressing Bcl-xL)
Description: Briefly, a DNA fragment encoding the full-length mouse Bcl-xL cDNA was isolated from the plasmid pBS-BCL-xL (Tzung et al., Am. J. Path. 150:1985-1995 (1997), incorporated herein by reference in its entirety) by digestion with the restriction endonuclease EcoRI. This EcoRI fragment was cloned into the EcoRI site of the mammalian expression vector pSFFV (Fuhlbrigge et al., Proc. Nat. Acad. Sci. USA 85:5649-5653 (1988)) in both sense and antisense orientations, to form expression plasmids pSFFV-Bc/-xL-WT(sense) or pSFFV-Bc/-xL(antisense), respectively. The tumorigenic murine hepatocyte cell line TAMH was transfected by lipofection (Lipofectamine, Life Technologies, Rockville, Md., according to the manufacturer's recommendations) with the plasmids pSFFV-neo (the control), pSFFV-Bc/-xL-WT(sense) or pSFFV-Bc/-xL(antisense). Characterization of and culture conditions for the cell lines have been previously published (Wu et al., Proc. Nat. Acad. Sci. USA 91:674-78 (1994); Wu et al., Cancer Res. 54:5964-5973 (1994)). […]
Selected transfectants were then tested for whole cell sensitivity to several apoptotic agents. […] Cell viability was determined by trypan blue dye exclusion. The percentage of viable cells was calculated by the number of viable cells (treated with a particular apoptogenic agent) divided by the number in the control group (untreated). […]

antimycin A showed an LD50 of 1.2 µM.
